Assay results published in PMC6471365 (2019).

Protein sequences, listed by entry. Tags and fused reporters are not part of them. Residues count along the entry.
UniProt A0A0H3KAV3, 32-226 limits assumed: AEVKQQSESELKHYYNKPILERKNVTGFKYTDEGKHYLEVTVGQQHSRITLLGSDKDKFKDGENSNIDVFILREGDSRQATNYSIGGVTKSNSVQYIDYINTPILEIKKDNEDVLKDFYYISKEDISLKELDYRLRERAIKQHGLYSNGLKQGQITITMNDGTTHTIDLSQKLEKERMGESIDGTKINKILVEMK

Molecular target: SSL1 (Staphylococcus aureus superantigen-like protein SSL1), recombinant, homodimer (Staphylococcus aureus, UniProt A0A0H3KAV3)
Experiment: inhibition of Chromozym PL hydrolysis, OD405
Conditions: substrate Chromozym PL, 37 °C

| SMILES | % Activity of Control ^1 (10000 µM, inhibitor 10 mM) [%] | % Activity of Control ^1 (1000 µM, inhibitor 1 mM) [%] |
| --- | --- | --- |
| NCCc1ccc(S(=O)(=O)F)cc1 | 0 | – |
| Cc1ccc(S(=O)(=O)N[C@@H](CCCCN)C(=O)CCl)cc1 | – | 0 |
